This note sets out measurements from patent US9181251B2, “Anti-malarial compounds from marine natural products” (University of Central Florida Research Foundation, Inc., priority 2012, dated 2015).

This data set concerns P. falciparum chloroquine-resistant Dd2 strain. Description: Antiplasmodial activity, SYBR Green I fluorescence-based assay. In kind it is cell-based. The method, then:
Fractions were derived from 20 different marine species. […] All fractions were then analyzed by LC-MS to identify active extracts with the greatest potential for novelty.
Antiplasmodial activity was tested in P falciparum chloroquine resistant Dd2, and the cytotoxicity was assessed in NIH 3T3 fibroblasts cells.
Asynchronous cultures were exposed to different concentrations of inhibitor for 72 hrs. […] The cytotoxicity against NIH 3T3 fibroblasts was evaluated using an MTS assay [(3-(4,5-dimethylthiazol-2-yl)-5-(3-carboxymethoxyphenyl)-2-(4-sulfophenyl)-2H-tetrazolium), CellTiter 96® Aqueous non-radioactive cell proliferation assay, Promega

Structures are written as SMILES.

`C/C1=C\CC(C)(C)/C=C/C(=O)[C@@H](C)CCC[C@H](C)CC(=O)C1` [Compound 3] displayed an SI (selectivity index given beside the IC50) of over 64.
Take `O=C1N[C@@H](c2c[nH]c3cc(Br)ccc23)CN=C1c1c[nH]c2cc(Br)ccc12` [Hamacanthin A 7, Hamacanthin A]: under “from Table 2”, the “ratio of a NIH 3T3 IC50 value to a P. falciparum IC50 value” is “at least 9”.
